# Patent publication US20240140975A1, “ANTIVIRAL APPLICATION OF NUCLEOSIDE ANALOG OR COMBINATION FORMULATION CONTAINING NUCLEOSIDE ANALOG” (priority 2020, published 2024)
# Test: Pharmacokinetic evaluation in mice
# Conditions: oral administration
structure (smiles),measurement,value
[2H]c1cc([C@]2(C#N)O[C@H](CO)[C@@H](O)[C@H]2O)n2ncnc(N)c12 [Compound A9],plasma exposure relative to that of GS-441524,1.3 times
[2H]c1cc([C@]2(C#N)O[C@H](C([2H])([2H])O)[C@@H](O)[C@H]2O)n2ncnc(N)c12 (stereo in doubt) [Compound A11],plasma exposure relative to that of GS-441524,1.2 times
